# Assay results as given in patent US10059975B2, “Methods for the isolation and identification of microorganisms” (bioMerieux, Inc., priority 2008, dated 2018).
# Tested on: positive blood culture broths containing S. pneumoniae, E. coli and S. aureus
# Test: Screening of density cushion compounds: separation of microorganisms from lysed positive blood culture broth
# Settings: 0.7 mL lysate over 0.5 mL cushion, 2 minutes at approximately 10,000 g
smiles,measurement,value
OC[C@H]1O[C@@](CO)(O[C@H]2O[C@H](CO)[C@@H](O)[C@H](O)[C@H]2O)[C@@H](O)[C@@H]1O [sucrose],separation results as density cushion (in words),Satisfactory
